Results deposited as PubChem BioAssay AID1259414 (Drosophila RNAi Screening Center, 2018).
The deposit covers about 24,000 reagents; shown is an unselected part of those that have a named target and a result. In the full data, about 1,210 (5%) were called active. 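Inactive calls also include excluded dsRNAs with several or no targets, genes unexpressed in JW18, and well A1, regardless of score.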 A plus sign joins genes that one reagent is predicted to hit.

Purpose: 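Host factors increasing or decreasing Wolbachia levels in cultured fly cells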 (primary screen)
System: Drosophila JW18 cells infected with Wolbachia
Reagents: long dsRNA against Drosophila genes, 0.25 µg dsRNA per well of a 384-well plate
Duration: 5 days
Treatment: cells persistently infected with Wolbachia before knock-down; no added drug
Measurement: 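Automated imaging of bacterial rRNA staining divided by host cell count, reported as plate-normalised robust z-score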
Direction: Wolbachia per cell robust z: higher = more Wolbachia per host cell than the plate typical
Call rule: 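Active if absolute robust z reaches 1.5 in two or more of three replicates, leaving out multi- or no-target dsRNAs, genes unexpressed in JW18 and A1 wells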

target gene | DRSC id | Wolbachia per cell robust z, rep 1 | Wolbachia per cell robust z, rep 2 | Wolbachia per cell robust z, rep 3 | Outcome
Cog4 (Component of oligomeric golgi complex 4) | DRSC03057 | 1.05 | 0.356 | 1.41 | inactive
Trxr1 (Thioredoxin reductase 1) | DRSC18668 | -0.172 | 0.352 | -1.68 | inactive
Trxr1 (Thioredoxin reductase 1) | DRSC22293 | 0.915 | 1.34 | -0.559 | inactive
Trxr1 (Thioredoxin reductase 1) | DRSC25749 | -3.74 | 1.62 | 0.581 | inactive
Trxr1 (Thioredoxin reductase 1) | DRSC40772 | -0.213 | -0.514 | 0.728 | inactive
AGO2 (Argonaute 2) | DRSC10847 | 0.505 | -0.213 | 0.508 | inactive
AGO2 (Argonaute 2) | DRSC40785 | -0.0743 | -0.136 | 1.12 | inactive
CG32376 | DRSC22754 | -1.97 | -1.61 | -1.03 | inactive
Gs2 (Glutamine synthetase 2) | DRSC20250 | 0.0495 | 0.138 | 0.393 | inactive
Gs2 (Glutamine synthetase 2) | DRSC26818 | 0.847 | 0.339 | -1.35 | inactive
Ir48b (Ionotropic receptor 48b) | DRSC06320 | 0.0212 | -2.18 | -3.04 | inactive
Mgtor (Megator) | DRSC05958 | -0.636 | 0.304 | 0.924 | inactive
Gr47b (Gustatory receptor 47b) | DRSC05275 | 0.281 | 0.0154 | 2.63 | inactive
wake (wide awake) | DRSC15248 | -1.22 | -0.385 | 1.07 | inactive
wake (wide awake) | DRSC16148 | -2.05 | 0.673 | -5.98 | inactive
wake (wide awake) | DRSC16149 | -0.105 | 0.209 | -0.351 | inactive
wake (wide awake) | DRSC22995 | -0.726 | 0.475 | 0.334 | inactive
wake (wide awake) | DRSC25798 | 0.739 | -0.577 | -1.01 | inactive
wake (wide awake) | DRSC29345 | -0.307 | -0.411 | 0.0823 | inactive
plx (pollux) | DRSC12260 | 2.71 | -0.221 | -8.63 | inactive
plx (pollux) | DRSC12385 | -0.526 | -0.139 | -3.15 | inactive
plx (pollux) | DRSC22683 | -0.469 | -1.43 | -0.794 | inactive
plx (pollux) | DRSC28545 | -2.11 | -0.781 | -2.46 | active
Sobp (Sine oculis-binding protein) | DRSC07312 | -0.653 | 0.731 | 0.121 | inactive
Sobp (Sine oculis-binding protein) | DRSC24534 | 0.744 | 1.69 | 1.2 | inactive
pigs (pickled eggs) | DRSC17472 | -0.0751 | 0.546 | -0.626 | inactive
pigs (pickled eggs) | DRSC18334 | -0.245 | 0.427 | -0.326 | inactive
pigs (pickled eggs) | DRSC18335 | -0.6 | 0.651 | 0.35 | inactive
alpha-Est4 (alpha-Esterase-4) | DRSC12616 | -1.98 | -0.183 | 0.92 | inactive
alpha-Est4 (alpha-Esterase-4) | DRSC27280 | -0.488 | -0.528 | 0.228 | inactive
Jabba | DRSC06521 | -1.75 | -0.268 | -0.383 | inactive
Jabba | DRSC37792 | 0.311 | 1.01 | 1.39 | inactive
kek2 (kekkon 2) | DRSC03552 | -3 | 0.44 | -0.316 | inactive
kek2 (kekkon 2) | DRSC26189 | -0.418 | 0.865 | 1.12 | inactive
CG4984 + CG4975 | DRSC06908 | -1.9 | -2.09 | -1.7 | inactive
CG4984 + CG4975 | DRSC39031 | -5.43 | 0.903 | -0.137 | inactive
CycJ (Cyclin J) | DRSC08653 | -0.292 | -0.191 | 0.423 | inactive
CycJ (Cyclin J) | DRSC29329 | -3.16 | -0.262 | -0.184 | inactive
S6k (Ribosomal protein S6 kinase) | DRSC11276 | -0.679 | 1.14 | 0.016 | inactive
S6k (Ribosomal protein S6 kinase) | DRSC40754 | -1.12 | -1.09 | 1.19 | inactive
CG9184 | DRSC08636 | -3.04 | -2.16 | -1.68 | inactive
CG9184 | DRSC22184 | 1.12 | -1.57 | -1.04 | inactive
CG9184 | DRSC23765 | 0.604 | 1.22 | 1.76 | inactive
CG1142 | DRSC12531 | -0.142 | -0.357 | -0.732 | inactive
CG1142 | DRSC27795 | -0.185 | 0.0917 | 0.853 | inactive
stac (staccato) | DRSC13693 | -0.585 | 0.5 | -0.077 | inactive
stac (staccato) | DRSC14392 | 0.0663 | 0.384 | -1.13 | inactive
stac (staccato) | DRSC22197 | 0.729 | -0.0908 | 0.235 | inactive
stac (staccato) | DRSC37864 | 0.271 | 1.62 | 0.991 | inactive
CG15715 | DRSC10216 | -0.299 | -2.08 | -0.415 | inactive
CG15715 | DRSC25332 | -2.42 | -1.86 | 0.742 | active
CG5664 | DRSC11782 | -1.95 | -0.677 | 0.673 | inactive
barr (barren) | DRSC03488 | 1.8 | 2.63 | 1.23 | active
Jhbp5 (Juvenile hormone binding protein 5) | DRSC14240 | 0.751 | -0.259 | -0.28 | inactive
lncRNA:CR43199 (long non-coding RNA:CR43199) | DRSC40532 | 0.452 | 0.989 | 0.906 | inactive
mey (morpheyus) | DRSC14468 | -0.81 | -7.59 | -3.36 | inactive
mey (morpheyus) | DRSC27364 | -5.12 | -0.0344 | -0.388 | inactive
mei-38 (meiotic 38) | DRSC18564 | 1.09 | 1.62 | 0.587 | inactive
loaf (lost and found) | DRSC09130 | 0.862 | -5.94 | 0.023 | inactive
CG13962 | DRSC02304 | -0.458 | -0.188 | -0.625 | inactive
CG13962 | DRSC30042 | -0.224 | -1.04 | -5.73 | inactive
CG4074 | DRSC11752 | 0.661 | 1.17 | 0.815 | inactive
CG4074 | DRSC29915 | 1.29 | 1.08 | 0.343 | inactive
S-Lap3 (Sperm-Leucylaminopeptidase 3) | DRSC10956 | -1.99 | 0.0765 | 0.123 | inactive
S-Lap3 (Sperm-Leucylaminopeptidase 3) | DRSC23958 | -0.632 | 0.288 | -1.67 | inactive
ccb (central complex broad) | DRSC20501 | -0.99 | -0.881 | -0.829 | inactive
cact (cactus) | DRSC03501 | -0.139 | 1.02 | -0.827 | inactive
cact (cactus) | DRSC28422 | -0.564 | -0.457 | 0.14 | inactive

Look-ups from above:
For “Outcome”, alpha-Est4 (alpha-Esterase-4) [DRSC12616] reads inactive
Entry of Trxr1 (Thioredoxin reductase 1) [DRSC18668] in “Outcome”: inactive
CG15715 [DRSC25332], Outcome → active
CG4984 + CG4975 [DRSC39031], Wolbachia per cell robust z, rep 2: 0.903
